Assay results as given in US20150086555A1 (THERACLONE SCIENCES, published 2015).

B1: TCN-538 (3206_O17) (antibody, V domains shown)
VH: QITLKESGPTLVKPTQTLTLTCVFSGFSLSITGVRVGWIRQPPGKALEWLALISWDDEKHYSPSLQSRLTITKDTSKNQVVLTMTNLDPVDTATYYCARSTDRGHVLRYFGWMLPGDAFDVWGQGTMVTVSS
VL: DIVMTQSPDFLPVSLGERATINCKSSQRVLYSSNNKNYLAWYQLKPGQPPKLIIYWASTRESGVPDRFSGSGSGTEFTLTISSLQAEDVAVYYCQQYYSRPYTFGQGTKLEIK
B2: TCN-536 (5095_N01) (antibody, V domains shown)
VH: QVQLQQWGAGLLKPSETLSLTCAVYGGSFSVSGYYWSWIRQPPGRGLEWIGEISHGGSTNYNPSLKSRVTISVDTTKNQFSLRLSSVTAADTAVYYCARGTDPDTEVYCRVGNCAAFDYWGQGSLVTVSS
VL: EIILAQSPGTLSLSPGERATLSCRASQFVSTRSLAWYQQRPGQAPRLLIYGASSRATGIPDRFSGSGSGTDFTLTISRLEPEDFAVYYCQHYGYSPRYAFGQGSKVEIK
B3: TCN-529 (5297_H01) (antibody, V domains shown)
VH: QITLRESGPTLVKPTQTLTLTCTFSGFSLSTNGVNVGWIRQPPGKALEWLALIYWDDDKRYSPSLKRRLTITKDTSKNQVVLTLTNMDPVDTATYYCAHRPDFYGDFEYWGPGTLVTVSS
VL: QSALTQPASVSGSPGQSITISCTGSSSDIGGYNYVSWYQQHPGKAPKLMIYDVNNRPSGVSNRFSGSKSGNTASLTISGLQTDDEADYYCGSYTGSPHYVFGTGTKVTVL
B4: TCN-528 (5087_P17) (antibody, V domains shown)
VH: QVQLVQSGSEVKKPGASVKVSCKASGYTFTNYDINWIRQAPGQGLEWMGWINPNSGTTGSAQRFQGRVTITVDTSITTVYMELSSLRSDDTAIYYCARGRELLRLQHFLTDSQSERRDCFDPWGQGTLVTVSS
VL: DIQMTQSPSSLSASVGDRVTITCRANQDIGIYLNWYQQNPGKVPKLLLHGASSLQGGVPSRFSASGSGTDFTLTIHSLQPEDLATYYCQQSRRLPYTFGQGTRVELK
B5: TCN-526 (5084_C17) (antibody, V domains shown)
VH: EVLMVESGGGLVQPGGSVRLSCVASGFSFSSHWMTWVRQAPGKGLEWVANIEDDGGDKYYVDSVKGRFIISRDNAKNSVYLQMNSLRAEDTAVYFCARGSGSSDRSDYDPHYYYYLDVWGKGATVTVSS
VL: DIQLTQSPSSLSASVGDRVTITCRASQSISRYLNWYQQKPGKAPKLLLFAASTLLDGVPSRFSGSGSGTDFTLTISSLQPEDFATYYCQRNHSPSWTFGQGTRVEIK
B6: TCN-534 (5249_B02) (antibody, V domains shown)
VH: QVQLVQSGAEVKKPGSSVKVSCRESGGTFNGYTITWVRQAPGQGLEWMGGIIPMMGTVNYAQKLQGRVTITTDYFTKTAYMDLNNLRSEDTAMYYCVKIRYTGQQLLWGQGTLVTVSS
VL: DIQMTQSPSTLSASIGDRVTITCRASQSIASWLAWYQQKPGKAPKLLIYEAVNLESGVPSRFSGSGSGTDFTLTISSLQPDDFATYFCQHYGTISQTFGGGTKVEIK
B7: TCN-531 (5091_H13) (antibody, V domains shown)
VH: EVQLVESGGDLVQPGRSLKLSCTGSGFTFGDYGVTWVRQAPGKGLEWVGFIRTRPWGGTADTAASVKGRFTISRDDSKSLAYLQMNSLKTEDTAVYYCCRDAPPNVEVASMTNWYFDLWGRGTLVTVSS
VL: DIQLTQSPSSLSASVGDRVTITCRASQGILNCLAWYQQKPGKVPNLLMYAASTLQSGVPSRFSGSGFGTDFTLTISSLQPEDVATYYCQTYGGVSTFGGGTKVEIR
B8: TCN-523 (5248_A17) (antibody, V domains shown)
VH: QVQLVQSGAEVKKPGSSVKVSCKASGGSFSNYAFSWVRQAPGQGLEWMGGTIPLLGTTNYAQKFQGRVTISADQFTSTAYMELGSLRSEDTAVYYCTRRKMTTAFDSWGQGTLVTVSS
VL: QPVLTQPPSASASLGASVTLTCTLSSAYSNYKVDWYQQRPGKGPRFVMRVGTGGIVGSKGDGIPDRFSVLGSGLNRYLTIKNIQEEDESDYHCGADHGSGSNFVSPYVFGGGTKLTVL
B9: TCN-533 (5256_A17a) (antibody, V domains shown)
VH: QVQLVQSGADVKKPGSSVTVSCKASGGSFSNYGINWVRQAPGQGLEWMGGIIPLINAPNYAPKFQGRVTITADMFSNIVSLQLTSLRTDDTAVYYCARRKMTTAIDYWGQGTLVTVSS
VL: B8 VL
B10: TCN-530 (5248_H10a) (antibody, V domains shown)
VH: QVQLVQSGAEVRKPGSSVKVSCKASGGPFMSYAIGWVRQAPGQGLEWMGGINPVFGRPHYAQKFQGRVTIATDDSTKTSYMELSSLTSEDTGMYYCASRYSRSSPGTFESWGQGTLVTVSS
VL: EIVMTQFPATLSVSPGERVTLSCRASQSVSNNLAWYQQKPGQPPRLLIYDASTRATGVPAKFSGTGSGTEFTLSISSLQSEDFAVYYCQQYHNWPPSYSFGLGTKLEIK
B11: TCN-535 (5246_P19) (antibody, V domains shown)
VH: QVQLVQSGSEVKKPGTSVKVSCTASGSVFTNYGISWVRQAPGQGLEWMGGIIPLFGAAKYAQKFQGRVTITADESTKTVYMELSRLTSKDTAIYFCAKAPRVYEYYFDQWGQGTPVTVSS
VL: EIVLTQSPGTLSLSPGERATLSCRASQSVSSSQLAWYQQKPGQAPRLIIYGASTRATGIPDRFSGSGSGTDFTLTIGRLEPEDFAVFFCQQYSTSPPTFGQGTKVDFK
B12: TCN-532 (5262_H18) (antibody, V domains shown)
VH: QVQLQESGPGLVKPSETLSLTCTVSGGSVSSETYYWSWIRQPPGKGLEWIGYIYYIGNTDYRPSLKSRVTISLDTSKNQFSLKLSSVTAADTAVYYCARGAYYDSSGYPAFYIWGQGTMVTVSS
VL: QSVLTQPPSVSGAPGQRVTISCTGSSSNIGSDYDVHWYKQLPGTAPKLLIFGNSNRPSGVPDRFSGSKSGTSASLAITGLQAEDEADYYCQSYDSSLSGFHVFGSGTKVTVL
B13: TCN-537 (3194_D21) (antibody, V domains shown)
VH: QVQLQQWGSGLLKPSETLSLTCAVYGGSFRDDYWTWIRQPPGKGLEWIGEINHSGRTNYNPSLKSRVTISVDTSLKQFSLKVISVTAADTAVYYCARGTSHVSRYFDWLPPTNWFDPWGQGTQVTVSS
VL: DIVLTQSPGTLSLSPGERATLSCRASQSVSSSYLAWYQQKPGQAPRLVMYGAATRATGIPDRFSGSGSGPDFTLTISRLEPEDFAMYYCQQYGNSPITFGQGTRLEIK
B14: TCN-527 (5086_C06) (antibody, V domains shown)
VH: QVQLQESGPGLVKPSETLSLNCAVSGGSISNYYWSWIRQPPGKGLEWIGYISYNGRPKYNPSLTSRVTISVDTSKDQFSLELRSVTAADTALYYCARETRFGELLSPYDAFEIWGQGTMVTVSS
VL: DIQMTQSPSSLSASVGDRVTMTCRASQNIRSYLNWYQQRPGTAPKLLIYAASTLHSGVPSRFSGGGSGTDFTLTINNLQPEDFASYYCQQSYDNPQTFGQGTKVEIK
B15: TCN-522 (3212_I12) (antibody, V domains shown)
VH: QVQLQQWGAGLLKPSETLSLTCTVSGGSLTDYSWNWIRQPPGKGLEWIGDTLHNGYTNYNPSLRGRVSISIDTSKNQVSLRLTSVTAADTALYYCARGSGGYGGFDYFGKLRTWDFWGQGTLVTVSS
VL: DIQLTQSPSSLSASVGDRVTITCRASQGIRNDLGWYQQKPGNAPKRLIFGASSLQSGVPSRFSGSGSGTEFTLTISSLQPEDFATYYCLQHNSYPYTFGQGTKLEIK

Biological target: hemagglutinin on whole inactivated influenza A virions, A/Japan/305/57 H2N2 (Influenza A virus A/Japan/305/1957(H2N2))

Binder	ELISA: Virus Binding (OD450)
B1	3.6 OD450
B2	0.07 OD450
B3	0.07 OD450
B4	3.61 OD450
B5	0.07 OD450
B6	3.56 OD450
B7	0.07 OD450
B8	3.55 OD450
B9	3.56 OD450
B10	3.43 OD450
B11	3.35 OD450
B12	0.07 OD450
B13	3.59 OD450
B14	3.62 OD450
B15	3.48 OD450
